# Human monoclonal antibodies against the spike receptor-binding domain (heavy:light variable regions). IC50 against pseudoviruses bearing the spike of naturally observed variants; lower = stronger; >10 µg/ml means not reached at the top dose. No active / inactive call. The stated detection limit is 0.0005 µg/ml; values near or below 0.001 µg/ml lie at the floor of the assay.
# B1: BD56-1577 (protein)
# chain 1: EVLLVESGGGFVKPGGSLRLSCAASGFSLRDAWMNWVRQAPGKGLEWVGRINSETDGGTPDYAAPVKGRFIISRDDSKNTLYLQMNSLKIEDTGVYYCWFGELLHYYNYGLDVWGQGTTVTVSS
# chain 2: DIQMTQSPSTLSASVGDRVTITCRASQSITTWLAWYQQRPGKAPKLLIYKASTLQTGVPSRFSGSGSGTEFTLTIDSLRPDDFATYYCQQYDSHLYTFGQGTKLEIK
# B2: BD56-1586 (protein)
# chain 1: QLQLQESGPGLVKPSETLSLTCTVSGGSISSSTYYWGWIRQPPGKGLEWIGSIYYSGSTHYNPSLKSRLTMSIDTSRNEFSLKLTSVTAADTAMYYCVRVRSSANIMLRGDFDYWGQGTLVTVSS
# chain 2: QSALTQPASVSGSPGQSITISCTGTSSDVGSYNLVSWYQQLPGKAPKLMIYEVNKRPSGVSNRFSGSKSGNTASLTISGLQADDEADYYCCSLAISYTWVFGGGTKLTVL
# B3: BD56-1573 (protein)
# chain 1: QVQLVQSGAEVKKPGSSVKVSCKASGDTFSNYGFSWVREAPGQGLEWMGRIIPVFGKTNYAQKFQGRVTIGADTSTSTAYMELSRLTSEDTAVYYCARDKVLGIQIWLDYFDNWGQGTLVTVSS
# chain 2: QSVLTQPPSVSGAPGQRVTISCTGSSSNIGAGYNVHWYQLLPGTAPKLLIYDNNNRPSGVPDRFSGSKSGTSASLAITGLQAEDEADYYCQSYDSSLSAFYVFGTGTKVTVL
# B4: BD56-1587 (protein)
# chain 1: QVQLQESGPGLVKPSGTLSLTCAVSGGSISSSYWWTWVRQSPGKGLEWVGEIFHTGSTNYNPSLKSRITMSVDKSKNQFSLILSSVTAADTAVYYCARRSSGYDGYWYFDLWGRGTLVTVSS
# chain 2: DIQMTQSPSSLSASVGDRVTITCRASQSISNYLNWYQHKPGKAPKLLIYAASTLQSGVPSRFTVSGSGTDFTLTIDSLQPEDFATYYCQQSYSTPLTFGGGTKVEIK
# B5: BD56-1591 (protein)
# chain 1: QEQLMQSGAEVKKPGSSVKVSCKASGGTFSSYSFSWVRQAPGQGLEWMGGIIPLLDTATYAQKFQGRVTITADELTSTAYMDLSSLRSDDTAVYFCARTPPYASGNFYPNYFDSWGQGTLVTVSS
# chain 2: DIVMTQSPDSLALSLGERATISCKSSQSVLSSANNKNYLAWYQQKRGQPPKLLIYWASTRESGVPHRFSGSGSGTDFTLTIGSLQAADVAVYYCQQYYSSPYTFGQGTKLEIK
# B6: BD56-1574 (protein)
# chain 1: EVQLVESGGGLVQPGRSLRLSCAASGFSFDDYAMHWVRQVPGKGLEWVSGLGWNGGGIGYADSVRGRFTISRDNAKNSLYLQMNSLRAEDTAFYYCAKAGCSSTSCYYYYYYMDVWGKGTTVTVSS
# chain 2: EIVLTQSPGTLSLSPGERATLSCRASQSVGSTYLAWYQQKPGQAPRLLIYGASRRATGIPDRFSGSGSGTDFTLTISRLEPEDFAVYYCQQYGSSLAFSFGQGTKLEIK
# Target: SARS-CoV-2 Omicron BA.1 spike pseudovirus
# Test: pseudovirus neutralization IC50; higher = weaker neutralization
# Method: (§1)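 Single-round VSV luciferase pseudovirus mixed with antibody dilutions for 1 h and put on Huh-7 cells for about a day; IC50 from the dose curve.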
row,Binder,pseudovirus neutralization IC50
1,B1,2.7 µg/mL
2,B2,> 10 µg/mL
3,B3,0.0408 µg/mL
4,B4,> 10 µg/mL
5,B5,> 10 µg/mL
6,B6,> 10 µg/mL

# Target: SARS-CoV-2 Omicron BA.2 spike pseudovirus
# Test: as above
# Method: as §1
row,Binder,pseudovirus neutralization IC50
1,B1,1.24 µg/mL
2,B2,> 10 µg/mL
3,B3,0.0253 µg/mL
4,B4,> 10 µg/mL
5,B5,> 10 µg/mL
6,B6,> 10 µg/mL

# Target: SARS-CoV-2 Omicron BA.2.75 spike pseudovirus
# Test: as above
# Method: as §1
row,Binder,pseudovirus neutralization IC50
1,B1,1.16 µg/mL
2,B2,> 10 µg/mL
3,B3,0.0222 µg/mL
4,B4,> 10 µg/mL
5,B5,> 10 µg/mL
6,B6,> 10 µg/mL

# Target: SARS-CoV-2 Omicron BA.5 spike pseudovirus
# Test: as above
# Method: as §1
row,Binder,pseudovirus neutralization IC50
1,B1,0.774 µg/mL
2,B2,> 10 µg/mL
3,B3,6.1 µg/mL
4,B4,> 10 µg/mL
5,B5,> 10 µg/mL
6,B6,> 10 µg/mL

# Target: SARS-CoV-2 Omicron BQ.1.1 spike pseudovirus
# Test: as above
# Method: as §1
row,Binder,pseudovirus neutralization IC50
1,B1,1.02 µg/mL
2,B2,> 10 µg/mL
3,B3,> 10 µg/mL
4,B4,> 10 µg/mL
5,B5,> 10 µg/mL
6,B6,> 10 µg/mL

# Target: SARS-CoV-2 Omicron XBB spike pseudovirus
# Test: as above
# Method: as §1
row,Binder,pseudovirus neutralization IC50
1,B1,1.27 µg/mL
2,B2,> 10 µg/mL
3,B3,> 10 µg/mL
4,B4,> 10 µg/mL
5,B5,> 10 µg/mL
6,B6,> 10 µg/mL

# Target: SARS-CoV-2 early D614G spike pseudovirus
# Test: as above
# Method: as §1
row,Binder,pseudovirus neutralization IC50
1,B1,1.18 µg/mL
2,B2,> 10 µg/mL
3,B3,0.0376 µg/mL
4,B4,> 10 µg/mL
5,B5,1.15 µg/mL
6,B6,> 10 µg/mL

# From the supplement of paper PMC9931576
